According to PMC9374677, “Staphylococcal superantigen-like protein 10 induces necroptosis through TNFR1 activation of RIPK3-dependent signal pathways” (2022):

Biological target: MBP-tagged extracellular domain of human TNFR1 (amino acids 22-211) (human) (UniProt P19438)

For “Staphylococcal superantigen-like protein 10 (SSL10), residues 31-227, C-terminal 6xHis (from UniProt A0A0H3K6Z9 31-227)”, the Kd was 3.87 µM.
